These results are taken from publication PMC2217675, “Quantitative High-Throughput Screen Identifies Inhibitors of the Schistosoma mansoni Redox Cascade” (PLoS Neglected Tropical Diseases, 2008).

The chains behind the UniProt entries cited, without tags or fusion partners. Residues count along the entry.
UniProt Q962Y6, 1-598: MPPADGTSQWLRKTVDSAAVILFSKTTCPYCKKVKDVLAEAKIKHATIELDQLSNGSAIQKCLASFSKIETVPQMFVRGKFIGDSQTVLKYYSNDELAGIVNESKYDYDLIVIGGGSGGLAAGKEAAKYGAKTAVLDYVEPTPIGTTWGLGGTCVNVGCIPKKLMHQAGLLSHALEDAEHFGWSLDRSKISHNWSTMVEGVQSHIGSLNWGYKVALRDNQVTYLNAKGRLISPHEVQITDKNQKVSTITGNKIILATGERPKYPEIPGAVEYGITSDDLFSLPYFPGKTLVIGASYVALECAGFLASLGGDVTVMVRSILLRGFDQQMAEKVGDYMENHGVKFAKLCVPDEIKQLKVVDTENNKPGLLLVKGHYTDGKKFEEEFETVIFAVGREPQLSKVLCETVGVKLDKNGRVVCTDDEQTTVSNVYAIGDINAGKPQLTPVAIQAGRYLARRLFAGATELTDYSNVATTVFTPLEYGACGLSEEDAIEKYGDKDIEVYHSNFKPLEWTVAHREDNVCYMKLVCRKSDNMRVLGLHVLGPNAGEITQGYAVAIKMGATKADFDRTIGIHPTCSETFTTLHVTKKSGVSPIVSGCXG

Like-named read-outs stand apart in the source and are kept apart here. Some results are limits rather than exact numbers.

One test has as its target TGR (Schistosoma mansoni, UniProt Q962Y6). Briefly: TGR activity assay with DTNB as substrate. The class given is biochemical. The conditions noted are these: read-out: TGR Assay IC50, 15 nM TGR.
For test [1], the target named is T1, S. mansoni TGR/Prx2 (Schistosoma mansoni, UniProt Q962Y6). The test can be described thus: Confirmation: screening TGR/Prx2 assay on powder samples, 24-point titration. Format: biochemical.
In test [2] the target is T1, S. mansoni TGR/Prx2. The conditions noted are these: for IC50: read-out: qHTS IC50. (In general: In qHTS, concentration-response curves come from the screen itself.)
The mark [3] stands for this setting: read-out: Confirmation IC50, identical assay as in the qHTS, independently acquired powder samples.
Setting [4] is: read-out: IC50 on re-test (confirmation), powder samples, values in text.

In general, IC50 refers to the concentration that gives 50% inhibition. For `O=P(Nc1ccc(Cl)cn1)(c1ccccc1)c1nc2ccccc2s1` (stereo not shown), the IC50 on TGR was 800 nM; at S. mansoni TGR/Prx2 [1] (setting [3]), 250 nM; at S. mansoni TGR/Prx2 [1] (setting [4]) it was 247 nM.
As for `O=P(Nc1nccs1)(c1ccccc1)c1nc2ccccc2s1` (stereo not shown), the IC50 on TGR came to 25 nM; on S. mansoni TGR/Prx2 [1] (setting [4]), 25 nM; at S. mansoni TGR/Prx2 [2] (primary screen, values in text), 37 nM.
For `O=P(Nc1nccs1)(c1ccccc1)c1ccccc1`, the IC50 at TGR is greater than 50000 nM; on S. mansoni TGR/Prx2 [1] (setting [3]), greater than 57000 nM; at S. mansoni TGR/Prx2 [2] (initial high throughput screen of the collection, 25 nM TGR, 50 nM Prx2) it was greater than 57000 nM. In addition, the “activity in qHTS” value at S. mansoni TGR/Prx2 [2] (primary screen) is “inactive”.
